Results from ChEMBL document CHEMBL1135687, “Metal-dependent inhibition of HIV-1 integrase” (J Med Chem, 2002).

Tested on: Human immunodeficiency virus 1
Assay: Cytotoxic concentration

Row | Structure (SMILES) | CC50
1 | O=C(NNC(=O)c1ccccc1SSc1ccccc1C(=O)NNC(=O)c1ccccc1S)c1ccccc1S | 34 µM
2 | O=C(NNC(=O)c1ccccc1S)c1ccccc1S [BIS(THIOSALICYL)HYDRAZIDE] | 14.4 µM
